ChEMBL document CHEMBL3988442, “University of Dundee, Small-Polar-MMV Screening Library” (2021)

By UniProt entry, the sequences of proteins in these tests, tags left out. Residues count along the entry.
UniProt A4I591, 1-473: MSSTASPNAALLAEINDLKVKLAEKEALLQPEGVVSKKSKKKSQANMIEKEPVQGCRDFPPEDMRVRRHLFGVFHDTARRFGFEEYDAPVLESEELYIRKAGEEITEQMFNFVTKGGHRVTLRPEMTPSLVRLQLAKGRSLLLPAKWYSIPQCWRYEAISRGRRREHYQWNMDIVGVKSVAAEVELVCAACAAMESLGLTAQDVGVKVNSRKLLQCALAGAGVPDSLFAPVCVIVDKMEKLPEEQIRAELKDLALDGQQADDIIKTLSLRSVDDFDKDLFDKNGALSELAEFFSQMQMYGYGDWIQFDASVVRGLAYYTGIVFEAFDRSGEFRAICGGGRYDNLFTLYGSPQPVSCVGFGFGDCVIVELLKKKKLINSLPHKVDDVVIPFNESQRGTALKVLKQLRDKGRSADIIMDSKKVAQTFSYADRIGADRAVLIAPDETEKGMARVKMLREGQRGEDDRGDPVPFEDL

Tests used:
Histidine--tRNA ligase = Histidine--tRNA ligase (Leishmania infantum, UniProt A4I591); assay: Leishmania infantum Histidine tRNA synthetase (LdHisRS); assay type: functional
[1] = In vitro enzyme assay to detect hydrolysis of chlorophenol red-beta-D-[…] directly proportional to the number of Toxoplasma stably expressing beta-galactosidase; assay type: functional, organism-based, Toxoplasma gondii

Row | Compound | pIC50 (Histidine--tRNA ligase) | pIC50 [1]
1 | COc1ccc(NC2CCN(CCc3ccccc3)CC2)cc1OC | 4.42 and 4.34 | –
2 | COc1ccc(CN2CCC(Nc3ccc(Br)cc3)CC2)c(OC)c1 | – | 5.03
3 | CCN1CCC(Nc2ccc(OC)c(OC)c2)CC1 | 4.46 and 4.27 | –

Values joined by “and” are separate entries in the source; they are usually repeats but may differ in a detail not shown here. Equal values may be shown once. Some compounds may have been tested in ways that are not shown here.
